Results published in PubChem BioAssay AID652067 (The Scripps Research Institute Molecular Screening Center, 2013).
The entries are a selection whose mix differs from that of the whole data set. The source made the active and inactive calls.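 The calls were made as follows: active = activation above the mean of all tested compounds plus 3 SD (cut at about 5.5% in these data); inactive = the rest.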

system: DAF-12 nuclear receptor (Haemonchus contortus); test: H. contortus DAF-12 nuclear receptor activators, primary screen, cell-based, luminescence, HEK293, lit1-tk-luc reporter (AID 652067); conditions: HEK293 hcDAF-12 lit1-tk-luc reporter, at 6.8 µM, hits give high values, 0% DMSO, 100% Δ7-dafachronic acid;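 also: 100% = response to 3 µM Δ7-dafachronic acid high control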

| Compound | activation |
| --- | --- |
| c1ccc(CN2CCC(Nc3ccccc3)CC2)cc1 | inactive: 0.08% |
| C/C(N)=N\P(=O)(Oc1ccccc1)Oc1ccccc1 | inactive: 0.3% |
| CCCN1CCC(Nc2cc(OC)cc(OC)c2)CC1 | inactive: 3.05% |
| O=c1[nH]c2ccccc2n1C1CCN(C(c2ccccc2)c2nnnn2C2CCCC2)CC1 (stereo not given) | inactive: -1.23% |
| Cc1cc(N(CCCl)CCCl)ccc1C=O | inactive: -1.63% |
| CN(C)C1(CNC(=O)c2cccc(C#N)c2)CCCCC1 | inactive: 0.85% |
| CC(C)(C)n1nnnc1C(c1cccc2ccccc12)N1CCC(n2c(=O)[nH]c3ccccc32)CC1 (stereo not given) | inactive: -3.6% |
| CC(C)(C)OC(=O)N1CCC(N(C(=O)c2ccccc2)c2ccc(Cl)cc2)CC1 | inactive: -0.53% |
| N#Cc1ccc(C(=O)NCC2(N3CCCCC3)CCCCC2)cc1 | inactive: -0.67% |
| N/C(=N\O)c1c(N)no[n+]1[O-] | inactive: -0.23% |
| COc1cccc(C(c2nnnn2C(C)(C)C)N2CCC(n3c(=O)[nH]c4ccccc43)CC2)c1OC (stereo not given) | inactive: -3.26% |
| CCOC(=O)N1CCC(Nc2ccc(C)cc2)CC1 | inactive: -3.71% |
| CCCCn1nnnc1C(c1cccc(OC)c1OC)N1CCC(n2c(=O)[nH]c3ccccc32)CC1 (stereo not given) | inactive: -3.25% |
| O=C(OC1CN2CCC1CC2)C1c2ccccc2C=Cc2ccccc21 (stereo not given) | inactive: -0.72% |
| O=c1[nH]c2ccccc2n1C1CCN(C(c2cccs2)c2nnnn2C2CCCC2)CC1 (stereo not given) | inactive: -1.48% |
| O=C(NCC1(N2CCOCC2)CCCCC1)c1cc(Br)ccc1Cl | inactive: -2.59% |
| CCCCn1nnnc1C(c1ccccc1)N1CCC(n2c(=O)[nH]c3ccccc32)CC1 (stereo not given) | inactive: -1.49% |
| COc1cc(C(=O)NCC2(N3CCOCC3)CCCCC2)cc(OC)c1C | inactive: -1.23% |
| COc1ccc(C(=O)NCC2(N3CCOCC3)CCCCC2)cc1OC | inactive: -0.55% |
| O=c1[nH]c2ccccc2n1C1CCN(C(c2ccnc3ccccc23)c2nnnn2C2CCCC2)CC1 (stereo not given) | inactive: -2.78% |
| O=c1[nH]c2ccccc2n1C1CCN(C(c2cccs2)c2nnnn2C2CCCCC2)CC1 (stereo not given) | inactive: -3.71% |
| NC(=O)C1(Nc2ccccc2)CCN(Cc2ccccc2)CC1 | inactive: -2.94% |
| CCC(CO)(C(=O)OC1CN2CCC1CC2)c1ccccc1 (stereo not given) | inactive: -0.51% |
| COc1cc(OC)cc(C(=O)NCC2(N3CCOCC3)CCCCC2)c1 | inactive: -1.77% |
| COc1cccc(C(c2nnnn2C2CCCC2)N2CCC(n3c(=O)[nH]c4ccccc43)CC2)c1OC (stereo not given) | inactive: -2.97% |
| COc1cccc(C(=O)N(c2cc(C)cc(C)c2)C2CCN(C(=O)OC(C)(C)C)CC2)c1 | inactive: 0.62% |
| CN1CCC(Nc2ccc(Cl)cc2)CC1 | inactive: -2.01% |
| CCOc1ncccc1C(=O)NCC1(N2CCOCC2)CCCCC1 | inactive: -1.25% |

| Compound | activation |
| --- | --- |
| CN1CCC(Nc2ccc(F)c(Cl)c2)CC1 | inactive: -2.33% |
| CCCOc1ccc(C(=O)NCC2(N(C)C)CCCCC2)cc1 | inactive: -0.4% |
| O=c1[nH]c2ccccc2n1C1CCN(C(c2cc3ccccc3o2)c2nnnn2C2CCCC2)CC1 (stereo not given) | inactive: -1.54% |
| CC(C)(C)OC(=O)N1CCC(Nc2ccccc2)CC1 | inactive: -0.84% |
| O=C(O)C1(Nc2ccccc2)CCN(Cc2ccccc2)CC1 | inactive: -1% |
| NN(c1ccccc1)C1CCN(CCc2ccccc2)CC1 | inactive: -1.41% |
| Cc1ccccc1NC1(C#N)CCN(Cc2ccccc2)CC1 | inactive: -0.7% |
| CC(C)(C)n1nnnc1C(c1ccnc2ccccc12)N1CCC(n2c(=O)[nH]c3ccccc32)CC1 (stereo not given) | inactive: -1.32% |
| COc1ccc(C(c2nnnn2C2CCCCC2)N2CCC(n3c(=O)[nH]c4ccccc43)CC2)cc1 (stereo not given) | inactive: 0.08% |
| CCN1CCC(Nc2cccc(F)c2)CC1 | inactive: 1.24% |
| O=C(NCC1(N2CCCCC2)CCCCC1)c1ccco1 | inactive: 1.03% |
| Cn1c(=O)[nH]cc(N(CCCl)CCCl)c1=O | inactive: -0.32% |
| CN(C)c1ccc(C(=O)NCC2(N3CCCCC3)CCCCC2)cc1 | inactive: 1.32% |
| O=c1[nH]c2ccccc2n1C1CCN(C(c2ccnc3ccccc23)c2nnnn2C2CCCCC2)CC1 (stereo not given) | inactive: -0.75% |
| COc1cc(OC)cc(C(=O)NCC2(N3CCCCC3)CCCCC2)c1 | inactive: 1.26% |
| CC(=O)N(c1ccccc1)C1CCNCC1 | inactive: 0.65% |
| COc1cccc(C(c2nnnn2C2CCCCC2)N2CCC(n3c(=O)[nH]c4ccccc43)CC2)c1OC (stereo not given) | inactive: -3.59% |
| CCC(c1nnnn1C1CCCCC1)N1CCC(n2c(=O)[nH]c3ccccc32)CC1 (stereo not given) | inactive: 0.05% |
| Cc1ccc(NC2(C#N)CCN(Cc3ccccc3)CC2)cc1 | inactive: -0.72% |
| Cc1ccc(C(=O)NCC2(N3CCCCC3)CCCCC2)o1 | inactive: 0.57% |
| Fc1ccccc1NC1CCN(Cc2ccccc2)CC1 | inactive: -1.29% |
| O=c1[nH]c2ccccc2n1C1CCN(C(c2ccccc2)c2nnnn2C2CCCCC2)CC1 (stereo not given) | inactive: -2.46% |
| O=c1[nH]c2ccccc2n1C1CCN(C(c2cccc3ccccc23)c2nnnn2C2CCCC2)CC1 (stereo not given) | inactive: 1.38% |
| COc1cc(C(=O)NCC2(N(C)C)CCCCC2)ccc1OC(F)F | inactive: -1.48% |
| CCOC(=O)N1CCC(Nc2cccc(C)c2)CC1 | inactive: -4.45% |
| CCOc1ccc(C)cc1CN(CCCl)CCCl | inactive: -0.17% |
| CC(C)(C)n1nnnc1C(c1ccccc1)N1CCC(n2c(=O)[nH]c3ccccc32)CC1 (stereo not given) | inactive: 0.54% |
